Test results taken from patent US20040097594A1 (priority 1998, published 2004).

Tested on: HIV-1 (strain IIIB)
Assay: Antiviral Activity Assay in MT4 Cells (propidium iodide based procedure)
Type: cell-based
Conditions: read-out: IC50 (MT-4 cells); MT4 cells infected with HIV-1 strain IIIB, 5 days; lower line of each compound's entry

In the case of “N-[2-(3-[[(2R,3S)-3-([(3R,3aS,6aR)hexahydrofuro[2,3-b]furan-3-yloxy]carbonylamino)-2-hydroxy-4-phenylbutyl](cyclopentyloxy)amino]sulfonylanilino)ethyl]-O-methyl-N′-(nitro)isourea and N-[2-(3-[[(2R,3S)-3-([(3S,3aR,6aS)hexahydrofuro[2,3-b]furan-3-yloxy]carbonylamino)-2-hydroxy-4-phenylbutyl](cyclopentyloxy)amino]sulfonylanilino)ethyl]-O-methyl-N′-(nitro)isourea”, the IC50 is reported as 100 to 500 nM.
